{"sequences": {"note": "Amino acid sequences for entries named in this document (tags omitted).", "UniProt P00811, whole entry": "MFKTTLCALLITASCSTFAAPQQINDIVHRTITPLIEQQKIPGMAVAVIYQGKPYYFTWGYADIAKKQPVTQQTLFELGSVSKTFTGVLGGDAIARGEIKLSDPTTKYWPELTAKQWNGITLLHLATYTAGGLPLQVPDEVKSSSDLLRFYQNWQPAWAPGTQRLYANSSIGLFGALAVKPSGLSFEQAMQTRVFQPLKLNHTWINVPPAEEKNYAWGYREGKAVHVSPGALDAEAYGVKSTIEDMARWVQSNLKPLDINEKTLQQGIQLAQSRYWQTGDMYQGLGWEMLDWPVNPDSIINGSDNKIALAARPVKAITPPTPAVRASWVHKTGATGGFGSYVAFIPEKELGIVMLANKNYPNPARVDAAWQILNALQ"}, "source": "PubChem BioAssay AID485294", "about": "(National Center for Advancing Translational Sciences (NCATS), 2010)", "note": "The list shows a part of the results, in another mix than the full data. Inconclusive results are not listed. Some salts and complexes are drawn in separate pieces, as the source files them; their charges need not balance. The source made the active and inactive calls. Calls follow the shape of the dose curve; as a rule, active = well fitted inhibition curve with a large enough effect; inconclusive = small, poorly fitted or top-dose-only effect; inactive = flat fitted curve, though single readings scatter.", "data": [{"biological_target": "Beta-lactamase (Escherichia coli (strain K12)) (UniProt P00811)", "assay": "qHTS Inhibitors of AmpC Beta-Lactamase (assay with detergent);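 also: 0% = no-compound wells and -100% = no-enzyme wells; nearly all actives have a fitted effect of over 25% in size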", "conditions": "AmpC hydrolysis of nitrocefin, absorbance 480 nm, 0.01% Triton; at 114 µM (top of the series)", "values": [{"smiles": "CN(C)C1(CNC(=O)c2cccc(C#N)c2)CCCCC1", "activity change, negative = inhibition": "inactive: -8.54%"}, {"smiles": "c1ccc(CN2CCC(Nc3ccccc3)CC2)cc1", "activity change, negative = inhibition": "inactive: 2.46%"}, {"smiles": "CCCN1CCC(Nc2cc(OC)cc(OC)c2)CC1", "activity change, negative = inhibition": "inactive: -2.73%"}, {"smiles": "O=C(NCC1(N2CCOCC2)CCCCC1)c1ccccc1", "activity change, negative = inhibition": "inactive: 21.3%"}, {"smiles": "N#Cc1ccc(C(=O)NCC2(N3CCCCC3)CCCCC2)cc1", "activity change, negative = inhibition": "inactive: -1.16%"}, {"smiles": "O=C(NCC1(N2CCOCC2)CCCCC1)c1ccccc1[N+](=O)[O-]", "activity change, negative = inhibition": "inactive: 23.1%"}, {"smiles": "O=C(NCC1(N2CCOCC2)CCCCC1)c1ccc([N+](=O)[O-])cc1", "activity change, negative = inhibition": "inactive: 24.9%"}, {"smiles": "CC(C)(C)OC(=O)N1CCC(N(C(=O)c2ccccc2)c2ccc(Cl)cc2)CC1", "activity change, negative = inhibition": "inactive: -10.4%"}, {"smiles": "CCOC(=O)N1CCC(Nc2ccc(C)cc2)CC1", "activity change, negative = inhibition": "inactive: -8.76%"}, {"smiles": "N/C(=N\\O)c1c(N)no[n+]1[O-]", "activity change, negative = inhibition": "inactive: -11.5%"}, {"smiles": "O=C(OC1CN2CCC1CC2)C1c2ccccc2C=Cc2ccccc21", "note": "(centres undefined)", "activity change, negative = inhibition": "inactive: -10.4%"}, {"smiles": "O=C(O)c1cccc(Nc2c([N+](=O)[O-])cc([N+](=O)[O-])cc2[N+](=O)[O-])c1", "activity change, negative = inhibition": "inactive: -11.3%"}, {"smiles": "O=C(NCC1(N2CCOCC2)CCCCC1)c1cc(Br)ccc1Cl", "activity change, negative = inhibition": "inactive: -5.66%"}, {"smiles": "COc1ccc(C(=O)NCC2(N3CCOCC3)CCCCC2)cc1OC", "activity change, negative = inhibition": "inactive: 7.49%"}, {"smiles": "COc1cc(C(=O)NCC2(N3CCOCC3)CCCCC2)cc(OC)c1OC", "activity change, negative = inhibition": "inactive: 17.8%"}, {"smiles": "COc1cc(OC)cc(C(=O)NCC2(N3CCOCC3)CCCCC2)c1", "activity change, negative = inhibition": "inactive: 3.02%"}, {"smiles": "COc1cccc(C(=O)N(c2cc(C)cc(C)c2)C2CCN(C(=O)OC(C)(C)C)CC2)c1", "activity change, negative = inhibition": "inactive: -2.36%"}, {"smiles": "CCC(CO)(C(=O)OC1CN2CCC1CC2)c1ccccc1", "note": "(centres undefined)", "activity change, negative = inhibition": "inactive: -12.6%"}, {"smiles": "CN1CCC(Nc2ccc(Cl)cc2)CC1", "activity change, negative = inhibition": "inactive: -0.973%"}, {"smiles": "CCCOc1ccc(C)cc1CN(CCCl)CCCl", "activity change, negative = inhibition": "inactive: -6.89%"}, {"smiles": "CCOc1ncccc1C(=O)NCC1(N2CCOCC2)CCCCC1", "activity change, negative = inhibition": "inactive: 3.88%"}, {"smiles": "CCCOc1ccc(C(=O)NCC2(N(C)C)CCCCC2)cc1", "activity change, negative = inhibition": "inactive: 3.48%"}, {"smiles": "Cc1ccccc1C(=O)NCC1(N(C)C)CCCCC1", "activity change, negative = inhibition": "inactive: 2.55%"}, {"smiles": "O=C(NCC1(N2CCCCC2)CCCCC1)c1ccco1", "activity change, negative = inhibition": "inactive: -7.64%"}, {"smiles": "CC(C)(C)c1ccc(C(=O)NCC2(N3CCOCC3)CCCCC2)cc1", "activity change, negative = inhibition": "inactive: 16%"}, {"smiles": "CN(C)c1ccc(C(=O)NCC2(N3CCCCC3)CCCCC2)cc1", "activity change, negative = inhibition": "inactive: 4.36%"}, {"smiles": "CN(C)C1(CNC(=O)c2ccc(C(C)(C)C)cc2)CCCCC1", "activity change, negative = inhibition": "inactive: 15.6%"}, {"smiles": "COc1cc(OC)cc(C(=O)NCC2(N3CCCCC3)CCCCC2)c1", "activity change, negative = inhibition": "inactive: -2.16%"}, {"smiles": "Cc1ccc(C(=O)NCC2(N3CCCCC3)CCCCC2)o1", "activity change, negative = inhibition": "inactive: -12.8%"}, {"smiles": "CCOC(=O)N1CCC(Nc2cccc(C)c2)CC1", "activity change, negative = inhibition": "inactive: -0.114%"}, {"smiles": "COc1cc(C(=O)NCC2(N(C)C)CCCCC2)ccc1OC(F)F", "activity change, negative = inhibition": "inactive: 2.3%"}, {"smiles": "Cc1ccc(OCC(C)C)c(CN(CCCl)CCCl)c1", "activity change, negative = inhibition": "inactive: 5.27%"}, {"smiles": "O=C(NCC1(N2CCOCC2)CCCCC1)c1ccc(Cl)cc1", "activity change, negative = inhibition": "inactive: -6%"}, {"smiles": "CCOc1ccc(C)cc1CN(CCCl)CCCl", "activity change, negative = inhibition": "inactive: 2.34%"}, {"smiles": "COc1ccccc1C(=O)NCC1(N2CCOCC2)CCCCC1", "activity change, negative = inhibition": "inactive: 28.2%"}, {"smiles": "O=C(NCC1(N2CCCCC2)CCCCC1)c1ccc(F)cc1", "activity change, negative = inhibition": "inactive: -4.98%"}, {"smiles": "COc1ccc(NC2CCN(CCc3ccccc3)CC2)c(OC)c1", "activity change, negative = inhibition": "inactive: -12.9%"}, {"smiles": "CCOC(=O)N1CCC(Nc2ccc(F)cc2)CC1", "activity change, negative = inhibition": "inactive: -10.4%"}, {"smiles": "O=C(NCC1(N2CCCCC2)CCCCC1)c1ccc(Cl)nc1", "activity change, negative = inhibition": "inactive: -3.49%"}, {"smiles": "Cc1cc(C)cc(N(C(=O)c2ccccc2)C2CCN(C(=O)OC(C)(C)C)CC2)c1", "activity change, negative = inhibition": "inactive: -11.7%"}, {"smiles": "N#CC1(Nc2ccccc2)CCN(Cc2ccccc2)CC1", "activity change, negative = inhibition": "inactive: -5.48%"}, {"smiles": "O=C(NCC1(N2CCCCC2)CCCCC1)c1ccc(Cl)s1", "activity change, negative = inhibition": "inactive: 4.98%"}, {"smiles": "O=C(OC1CN2CCC1CC2)C1c2ccccc2Oc2ccccc21", "note": "(centres undefined)", "activity change, negative = inhibition": "inactive: -0.914%"}, {"smiles": "COc1ccc(Cl)cc1C(=O)NCC1(N2CCOCC2)CCCCC1", "activity change, negative = inhibition": "inactive: -7.02%"}, {"smiles": "CCOC(=O)N1CCC(Nc2ccc(OC)cc2)CC1", "activity change, negative = inhibition": "inactive: -6.84%"}, {"smiles": "COc1ccc(C(=O)NCC2(N3CCCCC3)CCCCC2)cc1", "activity change, negative = inhibition": "inactive: 2.89%"}, {"smiles": "COc1ccc(C(=O)NCC2(N3CCCCC3)CCCCC2)c(OC)c1OC", "activity change, negative = inhibition": "inactive: -7.26%"}, {"smiles": "CC(C)(C)OC(=O)N1CCC(N(C(=O)c2ccccc2)c2ccc(F)cc2)CC1", "activity change, negative = inhibition": "inactive: 1.69%"}, {"smiles": "O=C(NCC1(N2CCCCC2)CCCCC1)c1ccc(=O)[nH]c1", "activity change, negative = inhibition": "inactive: 5.85%"}, {"smiles": "CSc1ccccc1C(=O)NCC1(N2CCCCC2)CCCCC1", "activity change, negative = inhibition": "inactive: -5.04%"}, {"smiles": "O=C(OC1CN2CCC1CC2)c1ccc([N+](=O)[O-])cc1", "note": "(centres undefined)", "activity change, negative = inhibition": "inactive: 3.59%"}, {"smiles": "O=C(NCC1(N2CCCCC2)CCCCC1)c1cncc(Br)c1", "activity change, negative = inhibition": "inactive: 4.87%"}, {"smiles": "COc1ccc2c(c1O)-c1c(O)c(OC)cc3c1[C@H](C2)[N+](C)(C)CC3.O=[N+]([O-])c1cc([N+](=O)[O-])c([O-])c([N+](=O)[O-])c1[O-]", "activity change, negative = inhibition": "inactive: 4.87%"}, {"smiles": "CCCCOc1ccccc1C(=O)NCC1(N2CCOCC2)CCCCC1", "activity change, negative = inhibition": "inactive: 3.31%"}, {"smiles": "O=C(NCC1(N2CCOCC2)CCCCC1)c1ccccc1Br", "activity change, negative = inhibition": "inactive: 0.828%"}, {"smiles": "CCCOc1ccc(C(=O)NCC2(N(C)C)CCCCC2)cc1OC", "activity change, negative = inhibition": "inactive: -4.19%"}, {"smiles": "CC(C)c1ccc(NC2CCN(C(=O)OC(C)(C)C)CC2)cc1", "activity change, negative = inhibition": "inactive: -12.7%"}, {"smiles": "COc1ccc(CN(CCCl)CCCl)cc1Cl", "activity change, negative = inhibition": "inactive: -1.72%"}, {"smiles": "O=[N+]([O-])c1cc([N+](=O)[O-])c(OC2CCCCC2O)c([N+](=O)[O-])c1", "note": "(centres undefined)", "activity change, negative = inhibition": "inactive: -14.4%"}, {"smiles": "CN(C)c1cccc(C(=O)NCC2(N3CCCCC3)CCCCC2)c1", "activity change, negative = inhibition": "inactive: 2.43%"}, {"smiles": "COc1cc(OC)c(C(=O)NCC2(N(C)C)CCCCC2)cc1OC", "activity change, negative = inhibition": "inactive: -7.29%"}, {"smiles": "O=[N+]([O-])c1cc([N+](=O)[O-])c(NCC2CCS(=O)(=O)C2)c([N+](=O)[O-])c1", "note": "(centres undefined)", "activity change, negative = inhibition": "inactive: 6.38%"}, {"smiles": "CCCOc1cccc(C(=O)NCC2(N3CCOCC3)CCCCC2)c1", "activity change, negative = inhibition": "inactive: -4.07%"}, {"smiles": "COc1cc(C(=O)NCC2(N3CCCCC3)CCCCC2)ccc1OC(F)F", "activity change, negative = inhibition": "inactive: -5.54%"}, {"smiles": "O=C(NCC1(N2CCOCC2)CCCCC1)c1cc(=O)[nH]c2ccccc12", "activity change, negative = inhibition": "inactive: -7.95%"}, {"smiles": "CN1CCN(CCOC(=O)C(O)(c2ccccc2)c2ccccc2)CC1", "activity change, negative = inhibition": "inactive: -14.6%"}, {"smiles": "COc1ccc(NC2CCN(C(=O)OC(C)(C)C)CC2)cc1", "activity change, negative = inhibition": "inactive: 1.21%"}, {"smiles": "CC(C)c1ccc(C(=O)NCC2(N3CCOCC3)CCCCC2)cc1", "activity change, negative = inhibition": "inactive: 15%"}, {"smiles": "O=C(NCC1(N2CCCCC2)CCCCC1)c1ccc(OC(F)F)cc1", "activity change, negative = inhibition": "inactive: -14.2%"}, {"smiles": "CCN1CCC(Nc2ccc(Cl)cc2)CC1", "activity change, negative = inhibition": "inactive: -1.6%"}, {"smiles": "N#CC1(Nc2ccccc2)CCN(CCc2ccccc2)CC1", "activity change, negative = inhibition": "inactive: 10.5%"}, {"smiles": "CSc1ccc(C(=O)NCC2(N3CCOCC3)CCCCC2)cc1", "activity change, negative = inhibition": "inactive: 0%"}, {"smiles": "O=C(NCC1(N2CCCCC2)CCCCC1)c1cccc([N+](=O)[O-])c1", "activity change, negative = inhibition": "inactive: 2.95%"}, {"smiles": "CCOc1ccc(C(=O)NCC2(N3CCOCC3)CCCCC2)cc1", "activity change, negative = inhibition": "inactive: 23.4%"}]}]}
